Compound potency records, mixed from different reports. Data source: NIAID ChemDB in PubChem.

All rows: tests in culture; organism: Candida albicans; measure: MIC

Lines come from different laboratories, so protocols vary.

Cn1nc2ccc(NC(=O)c3ccc([N+](=O)[O-])cc3)cc2n1 ; strain: ATCC 10231 ; result: 100 µg/mL
CC[N+]([O-])(CC)CCCC(C)=CCC/C(C)=C/CCC=C(C)CC/C=C(\C)CCC=C(C)C ; strain: S9 ; result: 200 µg/mL
CCc1nc(SCC(=O)N/N=C(\C)c2ccccc2[N+](=O)[O-])n[nH]1 ; strain: ATCC 90028 ; result: 200 µg/mL
Cc1ncc([N+](=O)[O-])n1CCn1c(-c2ccccc2)csc1=Nc1ccccc1 ; result: 250 µg/mL
COc1ccc(/C=C2\Sc3nnc(COc4ccc(Cl)cc4Cl)n3N=C2c2cc(F)c(Cl)cc2Cl)cc1OC ; result: 6 µg/mL
CO[C@@H]1C[C@H](C[C@@H](C)[C@@H]2CC(=O)[C@H](C)/C=C(\C)[C@@H](O)[C@@H](OC)C(=O)[C@H](C)C[C@H](C)/C=C/C=C/C=C(\C)[C@H](N(O)C(N)=O)C[C@@H]3CC[C@@H](C)[C@@](O)(O3)C(=O)C(=O)N3CCCC[C@H]3C(=O)O2)CC[C@H]1C(=O)ON(C)O ; strain: 38247 ; result: 100 µg/mL
Cc1cc(OCc2nnc3n2N=C(c2cc(F)c(Cl)cc2Cl)/C(=C/c2ccc4c(c2)OCO4)S3)ccc1Cl ; result: 6 µg/mL
CCCCSc1nc(C(N)=S)cnc1C(C)(C)C ; strain: ATCC 44859 ; result: >31.25 µg/mL
CO[C@H]1C[C@@H]2CC[C@@H](C)[C@@](O)(O2)C(=O)C(=O)N2CCCC[C@H]2C(=O)O[C@H]([C@H](C)C[C@@H]2CC[C@@H](C(=O)ON(C)C)[C@H](OC)C2)CC(=O)[C@H](C)/C=C(\C)[C@@H](O)[C@@H](OC)C(=O)[C@H](C)C[C@H](C)CCCC/C=C/1C ; strain: 579A ; result: 50 µg/mL
C[C@@H](n1cnc2cc(/C(N)=N/S(N)(=O)=O)ccc2c1=O)[C@](O)(Cn1cncn1)c1ccc(F)cc1F ; strain: 406 strains ; result: 10 µg/mL
Cc1ccc(C2=NN(c3ccc(S(N)(=O)=O)cc3)C(c3nnc4c5ccccc5c(=O)[nH]n34)C2)cc1 ; result: >200 µg/mL
C[C@@H]1[C@H](O)[C@@H](C)/C=C/C=C/C=C/C=C/C=C/C=C/C=C/[C@H](OC2O[C@H](C)[C@@H](O)[C@H](N(CCCN)CCCN)[C@@H]2O)C[C@@H]2O[C@](O)(C[C@@H](O)C[C@@H](O)[C@H](O)CC[C@@H](O)C[C@@H](O)CC(=O)O[C@H]1C)C[C@H](O)[C@H]2C(=O)NCCCCCCN ; strain: CAF2-1 ; result: 0.3 µM
C[C@H](n1cnc2cc(Cl)ccc2c1=O)[C@@](O)(Cn1cncn1)c1ccc(F)cc1F ; strain: 406 strains ; result: 10 µg/mL
Cc1ncc([N+](=O)[O-])n1CCN1C(=O)/C(=C/c2ccc(CO)cc2)N=C1c1ccccc1 ; result: 250 µg/mL
CN1C(=O)/C(=C2\S/C(=N/c3nnc(-c4ccccc4)o3)NC2=O)c2ccccc21 ; strain: ATCC 10231 ; result: 16 µg/mL
CCCCCCCCCCCCCCCCCC(=O)NC1CC(O)C(O)NC(=O)C2C(O)C(C)CN2C(=O)C(C(C)O)NC(=O)C(C(O)C(O)c2ccc(O)cc2)NC(=O)C2CC(O)CN2C(=O)C(C(C)O)NC1=O ; strain: MY1055 ; result: 0.5 µg/mL
CO[C@H]1C[C@@H]2CC[C@@H](C)[C@@](O)(O2)C(=O)C(=O)N2CCCC[C@H]2C(=O)O[C@H]([C@H](C)C[C@@H]2CC[C@@H](C(=O)ON3CCOCC3)[C@H](OC)C2)CC(=O)[C@H](C)/C=C(\C)[C@@H](O)[C@@H](OC)C(=O)[C@H](C)C[C@H](C)CCCC/C=C/1C ; strain: 38247 ; result: >100 µg/mL
COc1cc(C(=O)Nc2ccc3nn(C)nc3c2)cc(OC)c1OC ; strain: ATCC 10231 ; result: 100 µg/mL
CCCCc1ncc(C(N)=O)nc1SCC ; strain: ATCC 44859 ; result: >31.25 µg/mL
O=C(Nc1ccc2nn(C3CCCCC3)nc2c1)C(Cl)Cl ; strain: ATCC 10231 ; result: 25 µg/mL
Cc1ccc2c(c1)c1nnc(N3CC[N+](C)([O-])CC3)nc1n2C ; strain: 2402E ; result: >125 µg/mL
Cc1ccc(NC2N3N=C(c4ccccc4)CC3=C3N4NC(=O)c5ccccc5C4=NN32)cc1 ; result: >200 µg/mL
Clc1ccccc1C(c1ccccc1)(c1ccccc1)n1ccnc1 ; strain: ATCC 90028 ; result: 1 µg/mL
O=CN1N=C(c2ccccc2)CC1c1nnc2c3ccccc3c(=O)[nH]n12 ; result: 100 µg/mL
C[C@@H]1[C@H](O)[C@@H](C)/C=C/C=C/C=C/C=C/C=C/C=C/C=C/[C@H](OC2O[C@H](C)[C@@H](O)[C@H](N(CCCN)CCCN)[C@@H]2O)C[C@@H]2O[C@](O)(C[C@@H](O)C[C@@H](O)[C@H](O)CC[C@@H](O)C[C@@H](O)CC(=O)O[C@H]1C)C[C@H](O)[C@H]2C(=O)NCCCN1CCOCC1 ; strain: CAF2-1 ; result: 0.25 µM
CCc1nc(SCC(=O)N/N=C(\C)c2ccccc2Cl)n[nH]1 ; strain: ATCC 90028 ; result: 400 µg/mL
Fc1cc(C2=Nn3c(COc4ccc(Cl)cc4Cl)nnc3S/C2=C\c2ccc3c(c2)OCO3)c(Cl)cc1Cl ; result: 6 µg/mL
C[C@@H](n1cnc2cc(-[n+]3cnc[nH]3)ccc2c1=O)[C@](O)(Cn1cncn1)c1ccc(F)cc1F ; strain: 406 strains ; result: 10 µg/mL
CCCc1ncc(C(N)=S)nc1SC ; strain: ATCC 44859 ; result: >31.25 µg/mL
CO[C@H]1C[C@@H]2CC[C@@H](C)[C@@](O)(O2)C(=O)C(=O)N2CCCC[C@H]2C(=O)O[C@H]([C@H](C)C[C@@H]2CC[C@@H](C(=O)ON3CCNCC3)[C@H](OC)C2)CC(=O)[C@H](C)/C=C(\C)[C@@H](O)[C@@H](OC)C(=O)[C@H](C)C[C@H](C)CCCC/C=C/1C ; strain: 38247 ; result: >100 µg/mL
COc1cc(C(=O)Nc2ccc3nn(C4CCCCC4)nc3c2)cc(OC)c1OC ; strain: ATCC 10231 ; result: 50 µg/mL
O=C(Nc1nc2ccc(NC(=O)[C@@H]3CCC[C@H](NCc4ccc5ccccc5c4)C3)cc2s1)C1CCCC1 ; strain: IFM 47598 (Darlington) ; result: 3.13 µM
CCc1nc(SCC(=O)N/N=C(\C)c2ccc(Cl)cc2)n[nH]1 ; strain: ATCC 90028 ; result: 400 µg/mL
C[C@@H](n1cnc2cc(N3CCOC3=O)ccc2c1=O)[C@](O)(Cn1cncn1)c1ccc(F)cc1F ; strain: 60 strains ; result: 1.25 µg/mL
CCN(CC)CCCC(C)CCCC(C)CCCCC(C)CCCC(C)CCCN(CC)CC ; strain: S124 ; result: 100 µg/mL
C/C(=N\NC(=O)CSc1ncn[nH]1)c1ccc([N+](=O)[O-])cc1 ; strain: ATCC 90028 ; result: 400 µg/mL
Cc1ccc(C(=O)/C=C/c2nnc3c4ccccc4c(=O)[nH]n23)cc1 ; result: >200 µg/mL
COc1ccc(-c2nnc(Nc3nc(O)c(C4=c5cc(OC(F)(F)F)ccc5=NC4=O)s3)o2)cc1 ; strain: ATCC 10231 ; result: 16 µg/mL
CCCCCCCCCC(O)CC(=O)CCc1ccc(O)c(OC)c1 ; strain: CN1A ; result: 750 µg/mL
C[C@@H](n1cnc2cc(NCc3ccccc3)ccc2c1=O)[C@](O)(Cn1cncn1)c1ccc(F)cc1F ; strain: 60 strains ; result: ≤0.03 µg/mL
C/C(=N\NC(=O)CSc1n[nH]c(C)n1)c1ccc([N+](=O)[O-])cc1 ; strain: ATCC 90028 ; result: 200 µg/mL
CC(=O)N1CCN(c2ccc(OC[C@H]3CO[C@](Cn4ccnc4)(c4ccc(Cl)cc4Cl)O3)cc2)CC1 ; strain: 2005E ; result: <0.001 µg/mL
Fc1cc(C2=Nn3c(CNc4ccc(Cl)cc4)nnc3S/C2=C\c2ccc(Cl)cc2)c(Cl)cc1Cl ; result: 6 µg/mL
O=C1N=c2ccccc2=C1c1sc(Nc2nnc(-c3ccc(Cl)cc3)o2)nc1O ; strain: ATCC 10231 ; result: 16 µg/mL
CO[C@@H]1C[C@H](C[C@@H](C)[C@@H]2CC(=O)[C@H](C)/C=C(\C)[C@@H](O)[C@@H](OC)C(=O)[C@H](C)C[C@H](C)/C=C/C=C/C=C(\C)[C@@H](N(OC)C(=O)N(C)C)C[C@@H]3CC[C@@H](C)[C@@](O)(O3)C(=O)C(=O)N3CCCC[C@H]3C(=O)O2)CC[C@H]1C(=O)ON(C)O ; strain: 442 ; result: 50 µg/mL
CCCc1ncc(C(N)=O)nc1SC ; strain: ATCC 44859 ; result: >31.25 µg/mL
Cc1ncc([N+](=O)[O-])n1CCN1C(=O)/C(=C/c2ccccc2)N=C1c1ccccc1 ; result: 250 µg/mL
O=c1[nH]n2c(C3CC(c4ccccc4)=NN3c3ccccc3)nnc2c2ccccc12 ; result: 50 µg/mL
C/C(=N\NC(=O)CSc1n[nH]c(C)n1)c1ccccc1[N+](=O)[O-] ; strain: ATCC 90028 ; result: 400 µg/mL
C[C@@H]1[C@H](O)[C@@H](C)/C=C/C=C/C=C/C=C/C=C/C=C/C=C/[C@H](OC2O[C@H](C)[C@@H](O)[C@H](N(CCCN)CCCN)[C@@H]2O)C[C@@H]2O[C@](O)(C[C@@H](O)C[C@@H](O)[C@H](O)CC[C@@H](O)C[C@@H](O)CC(=O)O[C@H]1C)C[C@H](O)[C@H]2C(=O)O ; strain: DSY1751 ; result: 0.1 µM
CCCCCCCCOc1ccc(C(=O)NC2C[C@@H](O)[C@@H](O)NC(=O)C3[C@@H](O)[C@@H](C)CN3C(=O)C(C(C)O)NC(=O)C([C@H](O)[C@@H](O)c3ccc(O)cc3)NC(=O)C3C[C@@H](O)CN3C(=O)C(C(C)O)NC2=O)cc1 ; strain: MY1055 ; result: 1 µg/mL
C/C(=N\NC(=O)CSc1ncn[nH]1)c1ccccc1[N+](=O)[O-] ; strain: ATCC 90028 ; result: 400 µg/mL
Cc1cc(COc2ccc(Oc3ccc(Cl)cc3)cc2)n(O)c(=O)c1 ; strain: TIMM2640 ; result: >8 µg/mL
Cc1ccc(N=c2scc(-c3ccccc3)n2CCn2c([N+](=O)[O-])cnc2C)cc1 ; result: 250 µg/mL
CSc1nc(C(N)=O)cnc1C(C)(C)C ; strain: ATCC 44859 ; result: >31.25 µg/mL
CCC(=O)N1N=C(c2ccc(C)cc2)CC1c1nnc2c3ccccc3c(=O)[nH]n12 ; result: >200 µg/mL
CC(C)c1cccc(-c2nc3[n+]([nH]2)CCN([C@H](C)[C@](O)(C[n+]2cnc[nH]2)c2ccc(F)cc2F)C3)c1 ; strain: Y0109 ; result: 0.125 µg/mL
C[C@H](N)C(=O)N[C@H](C(=O)O)n1cc(F)c(=O)[nH]c1=O ; strain: B-310 ; result: 12.5 µg/mL
Fc1cc(C2=Nn3c(COc4ccc(Cl)cc4Cl)nnc3S/C2=C\c2ccc(Cl)cc2)c(Cl)cc1Cl ; result: 6 µg/mL
Cc1ncc([N+](=O)[O-])n1CCNC(=S)Nc1ccccc1 ; result: 62.5 µg/mL
CCCCCCCCCCCC[N+](C)(C)[O-] ; strain: S9 ; result: 100 µg/mL
CN1C(=O)/C(=C2\S/C(=N/c3nnc(-c4ccc(Cl)cc4)o3)NC2=O)c2ccccc21 ; strain: ATCC 10231 ; result: 16 µg/mL
C[C@@H](N1CCc2nc(-c3ccco3)sc2C1)[C@](O)(C[n+]1cnc[nH]1)c1ccc(F)cc1F ; strain: SC5314 ; result: 0.25 µg/mL
CC[N+](C)(CC)CCCC(C)=CCC/C(C)=C/CCC=C(C)CC/C=C(\C)CCC[N+](C)(CC)CC ; strain: S9 ; result: 25 µg/mL
Cc1ncc([N+](=O)[O-])n1CCN1C(=O)/C(=C/c2cccc(Cl)c2)N=C1c1ccccc1 ; result: 125 µg/mL
O=C1N=c2ccc(S(=O)(=O)[O-])cc2=C1c1sc(Nc2nnc(-c3ccccc3)o2)nc1O ; strain: ATCC 10231 ; result: 16 µg/mL
Cc1ccc(-c2cc(-c3nnc4c5ccccc5c(=O)[nH]n34)on2)cc1 ; result: 12.5 µg/mL
CCN(CC)CCCC(C)=CCC/C(C)=C/CCC=C(C)CC/C=C(\C)CCCN(CC)CC ; strain: S9 ; result: 50 µg/mL
O=c1[nH]cc(F)c(=O)[nH]1 ; strain: 3153A ; result: 1 µg/mL
CCCSc1nc(C(N)=O)cnc1C(C)(C)C ; strain: ATCC 44859 ; result: >31.25 µg/mL

For reference, 4 entries again:

compound	strain	result
CCN(CC)CCCC(C)=CCC/C(C)=C/CCC=C(C)CC/C=C(\C)CCCN(CC)CC	S9	50 µg/mL
C[C@H](N)C(=O)N[C@H](C(=O)O)n1cc(F)c(=O)[nH]c1=O	B-310	12.5 µg/mL
O=C1N=c2ccc(S(=O)(=O)[O-])cc2=C1c1sc(Nc2nnc(-c3ccccc3)o2)nc1O	ATCC 10231	16 µg/mL
CCCCCCCCCCCC[N+](C)(C)[O-]	S9	100 µg/mL